Source: patent publication US20150253335

The substances below were run on crypto-M. tuberculosis MAS (FAS/PKS hybrid) labeled with coumarin-PPant.
In the case of “acyl carrier protein hydrolase (AcpH) from Cyanothece PCC 7822”, the “AcpH qualitative CP activity” value is reported as “no”.
In the case of “acyl carrier protein hydrolase (AcpH) from Pseudomonas aeruginosa PAO1”, the “AcpH qualitative CP activity” value is reported as “no”.
With “annotated hypothetical AcpH homolog from Shewanella oneidensis MR-1” the “AcpH qualitative CP activity” value was “no”.
